Patent US20220000976A1 (priority 2018, published 2022)
Where a name gives a salt, the structure may show the parent alone.

Test system: ROR-γt+ Treg cells
Details: I3S 100 mg/kg in PBS intraperitoneally once weekly, OVA/SEB sensitization once weekly for 8 weeks

SMILES: O=S(=O)(O)Oc1c[nH]c2ccccc12 [I3S, Indoxyl sulfate]
- ROR-γt+ staining in CD4+Foxp3+ Treg cells vs sham treatment: statistically significant increase
